Assay results from PMC3642348, “Human and Viral Golgi Anti-apoptotic Proteins (GAAPs) Oligomerize via Different Mechanisms and Monomeric GAAP Inhibits Apoptosis and Modulates Calcium*^([image sbox.jpg])” (2013).

Tests used:
[1] = molecular target: CMLV vGAAP purified from yeast, GFP-His8 tag removed (camelpox virus); assay: non-reducing SDS-PAGE
[2] = molecular target: CMLV vGAAP-GFP-His8 fusion protein before tobacco etch virus protease cleavage (camelpox virus); assay: non-reducing SDS-PAGE

Substance | stoichiometry N [1] | stoichiometry N [2]
CMLV vGAAP purified from yeast, GFP-His8 tag removed (natural protein) | 4 | 
CMLV vGAAP-GFP-His8 fusion protein before tobacco etch virus protease cleavage (natural protein) |  | 2
